From paper PMC11937253, “Identification of neutralizing nanobodies protecting against poxvirus infection” (Cell Discovery, 2025)

B1: nanobody M1R-01 (monovalent) (VHH)
VHH: QVQLVESGGGLVQAGGSLRLSCAASGFIFHNFDMGWYRQAPGKEREFVAAISDNGRSTYYADSVKGRFTISRDNAKNTVYLQMNSLKPEDTAVYYCAVAWLSIPDLAEWYDYWGQGTQVTVSS
B2: recombinant MPXV M1R protein (ectodomain, His-tagged) (domain or fragment)
chain: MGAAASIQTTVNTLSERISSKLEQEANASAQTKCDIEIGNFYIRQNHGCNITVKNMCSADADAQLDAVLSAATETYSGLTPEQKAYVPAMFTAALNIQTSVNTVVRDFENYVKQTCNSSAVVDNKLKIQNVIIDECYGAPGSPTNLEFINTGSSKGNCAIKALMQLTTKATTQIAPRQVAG

Key:
[1] = molecular target: B2; experiment: cell-based or functional assay
[2] = molecular target: mFc-M1R-01 (M1R-01 fused with mouse IgG Fc), purified; experiment: SPR; BiaCore T200; […]; 1:1 binding model; details: both partners purified

Row | Binder | neutralizing IC50 against IMV of MVA and VACV-WR (plaque reduction) [1] | Kd [2]
1 | B1 | ~20 mg/L | 
2 | B2 |  | 1.79 nM
